This data set has as its system Dengue virus 2 (DENV-2). It is filed as cell-based. Conditions: selective index, CC50 over EC50; against LLCMK2 cells.

On to `C[C@@H]1O[C@@H](O[C@@H]2[C@@H](O)[C@H](OCCc3ccc(O)c(O)c3)O[C@H](CO)[C@H]2OC(=O)/C=C/c2ccc(O)c(O)c2)[C@H](O)[C@H](O)[C@H]1O` [AP 1, verbascoside], for which the “SI (DENV-2)” value is on record as 3.8.
With `C[C@H]1[C@H](C)CC[C@]2(C(=O)O)CC[C@]3(C)C(=CC[C@@H]4[C@@]5(C)CC[C@H](O)C(C)(C)[C@@H]5CC[C@]43C)[C@H]12` [AP 3, ursolic acid] the figure was 3.1.

The values above are taken from publication PMC6269977, “Chemistry and Antiviral Activity of Arrabidaea pulchra (Bignoniaceae)” (Molecules, 2013).
